PubChem BioAssay AID1259414, Drosophila RNAi Screening Center – 2018
In all, the deposit lists about 24,000 reagents; below is an unselected part of those with a known target gene and a result. In the full data, about 1,210 (5%) got an active call. 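Inactive calls also include excluded dsRNAs with several or no targets, genes unexpressed in JW18, and well A1, regardless of score.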

Purpose: 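Host factors increasing or decreasing Wolbachia levels in cultured fly cells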 (primary screen)
Cell system: Drosophila JW18 cells infected with Wolbachia
Knock-down reagent: long dsRNA against Drosophila genes, 0.25 µg dsRNA per well of a 384-well plate
Timing: 5 days
Treatment: cells persistently infected with Wolbachia before knock-down; no added drug
Measurement: 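Automated imaging of bacterial rRNA staining divided by host cell count, reported as plate-normalised robust z-score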
Scale: Wolbachia per cell robust z: higher = more Wolbachia per host cell than the plate typical
Rule for the call: 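Active if absolute robust z reaches 1.5 in two or more of three replicates, leaving out multi- or no-target dsRNAs, genes unexpressed in JW18 and A1 wells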

{"gene":"CG10747","dsRNA":"DRSC02104","Wolbachia per cell robust z, rep 1":1.06,"Wolbachia per cell robust z, rep 2":0.679,"Wolbachia per cell robust z, rep 3":-3.17,"activity call":"inactive"}
{"gene":"mRpL51","dsRNA":"DRSC02200","Wolbachia per cell robust z, rep 1":-0.697,"Wolbachia per cell robust z, rep 2":-0.805,"Wolbachia per cell robust z, rep 3":-0.835,"activity call":"inactive"}
{"gene":"mRpL51","dsRNA":"DRSC29908","Wolbachia per cell robust z, rep 1":0.463,"Wolbachia per cell robust z, rep 2":-0.235,"Wolbachia per cell robust z, rep 3":0.427,"activity call":"inactive"}
{"gene":"mats","dsRNA":"DRSC13562","Wolbachia per cell robust z, rep 1":-0.00271,"Wolbachia per cell robust z, rep 2":-0.542,"Wolbachia per cell robust z, rep 3":0.701,"activity call":"inactive"}
{"gene":"mats","dsRNA":"DRSC14702","Wolbachia per cell robust z, rep 1":-0.00346,"Wolbachia per cell robust z, rep 2":-2.55,"Wolbachia per cell robust z, rep 3":-0.679,"activity call":"inactive"}
{"gene":"CG15209","dsRNA":"DRSC19655","Wolbachia per cell robust z, rep 1":-0.64,"Wolbachia per cell robust z, rep 2":0.413,"Wolbachia per cell robust z, rep 3":-0.588,"activity call":"inactive"}
{"gene":"uri","dsRNA":"DRSC04111","Wolbachia per cell robust z, rep 1":-0.66,"Wolbachia per cell robust z, rep 2":0.0602,"Wolbachia per cell robust z, rep 3":-3.23,"activity call":"inactive"}
{"gene":"uri","dsRNA":"DRSC25077","Wolbachia per cell robust z, rep 1":0.547,"Wolbachia per cell robust z, rep 2":1.4,"Wolbachia per cell robust z, rep 3":0.981,"activity call":"inactive"}
{"gene":"Max","dsRNA":"DRSC11218","Wolbachia per cell robust z, rep 1":0.665,"Wolbachia per cell robust z, rep 2":-4.12,"Wolbachia per cell robust z, rep 3":-0.0783,"activity call":"inactive"}

2 of these entries, reformatted.
CG10747 [DRSC02104] → Wolbachia per cell robust z, rep 1: 1.06; Wolbachia per cell robust z, rep 2: 0.679; Wolbachia per cell robust z, rep 3: -3.17; activity call: inactive
mRpL51 [DRSC02200] → Wolbachia per cell robust z, rep 1: -0.697; Wolbachia per cell robust z, rep 2: -0.805; Wolbachia per cell robust z, rep 3: -0.835; activity call: inactive

The list goes on:
{"gene":"Qsox1","dsRNA":"DRSC06878","Wolbachia per cell robust z, rep 1":0.521,"Wolbachia per cell robust z, rep 2":0.528,"Wolbachia per cell robust z, rep 3":-0.349,"activity call":"inactive"}
{"gene":"Qsox1","dsRNA":"DRSC29927","Wolbachia per cell robust z, rep 1":-0.648,"Wolbachia per cell robust z, rep 2":-0.486,"Wolbachia per cell robust z, rep 3":-4.98,"activity call":"inactive"}
{"gene":"Rtel1","dsRNA":"DRSC18343","Wolbachia per cell robust z, rep 1":1.07,"Wolbachia per cell robust z, rep 2":-0.00429,"Wolbachia per cell robust z, rep 3":-0.7,"activity call":"inactive"}
{"gene":"Rtel1","dsRNA":"DRSC26293","Wolbachia per cell robust z, rep 1":0.698,"Wolbachia per cell robust z, rep 2":-0.548,"Wolbachia per cell robust z, rep 3":0.308,"activity call":"inactive"}
{"gene":"CG12994","dsRNA":"DRSC19514","Wolbachia per cell robust z, rep 1":-2.58,"Wolbachia per cell robust z, rep 2":1.37,"Wolbachia per cell robust z, rep 3":0.871,"activity call":"inactive"}
{"gene":"Rpp25","dsRNA":"DRSC05002","Wolbachia per cell robust z, rep 1":-0.666,"Wolbachia per cell robust z, rep 2":0.159,"Wolbachia per cell robust z, rep 3":-0.267,"activity call":"inactive"}
{"gene":"dve","dsRNA":"DRSC04680","Wolbachia per cell robust z, rep 1":-0.988,"Wolbachia per cell robust z, rep 2":-1.16,"Wolbachia per cell robust z, rep 3":-0.973,"activity call":"inactive"}
{"gene":"dve","dsRNA":"DRSC28692","Wolbachia per cell robust z, rep 1":-7.06,"Wolbachia per cell robust z, rep 2":0.575,"Wolbachia per cell robust z, rep 3":0.152,"activity call":"inactive"}
{"gene":"sut4","dsRNA":"DRSC07703","Wolbachia per cell robust z, rep 1":-1.71,"Wolbachia per cell robust z, rep 2":-1.59,"Wolbachia per cell robust z, rep 3":-3.04,"activity call":"inactive"}
{"gene":"sut4","dsRNA":"DRSC24885","Wolbachia per cell robust z, rep 1":-5.09,"Wolbachia per cell robust z, rep 2":-0.554,"Wolbachia per cell robust z, rep 3":-0.712,"activity call":"inactive"}
{"gene":"mid","dsRNA":"DRSC02977","Wolbachia per cell robust z, rep 1":-5.14,"Wolbachia per cell robust z, rep 2":-4.05,"Wolbachia per cell robust z, rep 3":-4.02,"activity call":"inactive"}
{"gene":"mid","dsRNA":"DRSC21493","Wolbachia per cell robust z, rep 1":0.764,"Wolbachia per cell robust z, rep 2":0.699,"Wolbachia per cell robust z, rep 3":-0.518,"activity call":"inactive"}
{"gene":"mid","dsRNA":"DRSC25557","Wolbachia per cell robust z, rep 1":-1.18,"Wolbachia per cell robust z, rep 2":-0.171,"Wolbachia per cell robust z, rep 3":-1.74,"activity call":"inactive"}
{"gene":"Nab2","dsRNA":"DRSC14158","Wolbachia per cell robust z, rep 1":0.349,"Wolbachia per cell robust z, rep 2":0.784,"Wolbachia per cell robust z, rep 3":0.334,"activity call":"inactive"}
{"gene":"Nab2","dsRNA":"DRSC27135","Wolbachia per cell robust z, rep 1":0.598,"Wolbachia per cell robust z, rep 2":-0.0963,"Wolbachia per cell robust z, rep 3":-2.87,"activity call":"inactive"}
